Source: patent US20160356776

Biological target: his-tagged recombinant CFP-SNAP-25-YFP chimera protein (purified from E. coli), P60881

B1: botulinum neurotoxin E (BoNT/E) (protein)
chain 1: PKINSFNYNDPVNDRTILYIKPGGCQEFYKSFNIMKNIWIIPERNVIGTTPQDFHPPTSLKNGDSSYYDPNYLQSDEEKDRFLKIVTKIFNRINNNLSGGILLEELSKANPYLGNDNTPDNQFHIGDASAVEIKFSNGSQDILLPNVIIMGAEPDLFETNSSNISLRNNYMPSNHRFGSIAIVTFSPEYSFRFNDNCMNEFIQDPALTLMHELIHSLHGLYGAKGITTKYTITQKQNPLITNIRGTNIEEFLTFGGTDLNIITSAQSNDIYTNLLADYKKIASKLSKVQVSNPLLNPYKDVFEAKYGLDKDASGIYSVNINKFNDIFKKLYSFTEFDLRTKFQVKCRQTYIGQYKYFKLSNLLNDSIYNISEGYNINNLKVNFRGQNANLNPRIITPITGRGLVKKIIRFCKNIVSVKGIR
chain 2: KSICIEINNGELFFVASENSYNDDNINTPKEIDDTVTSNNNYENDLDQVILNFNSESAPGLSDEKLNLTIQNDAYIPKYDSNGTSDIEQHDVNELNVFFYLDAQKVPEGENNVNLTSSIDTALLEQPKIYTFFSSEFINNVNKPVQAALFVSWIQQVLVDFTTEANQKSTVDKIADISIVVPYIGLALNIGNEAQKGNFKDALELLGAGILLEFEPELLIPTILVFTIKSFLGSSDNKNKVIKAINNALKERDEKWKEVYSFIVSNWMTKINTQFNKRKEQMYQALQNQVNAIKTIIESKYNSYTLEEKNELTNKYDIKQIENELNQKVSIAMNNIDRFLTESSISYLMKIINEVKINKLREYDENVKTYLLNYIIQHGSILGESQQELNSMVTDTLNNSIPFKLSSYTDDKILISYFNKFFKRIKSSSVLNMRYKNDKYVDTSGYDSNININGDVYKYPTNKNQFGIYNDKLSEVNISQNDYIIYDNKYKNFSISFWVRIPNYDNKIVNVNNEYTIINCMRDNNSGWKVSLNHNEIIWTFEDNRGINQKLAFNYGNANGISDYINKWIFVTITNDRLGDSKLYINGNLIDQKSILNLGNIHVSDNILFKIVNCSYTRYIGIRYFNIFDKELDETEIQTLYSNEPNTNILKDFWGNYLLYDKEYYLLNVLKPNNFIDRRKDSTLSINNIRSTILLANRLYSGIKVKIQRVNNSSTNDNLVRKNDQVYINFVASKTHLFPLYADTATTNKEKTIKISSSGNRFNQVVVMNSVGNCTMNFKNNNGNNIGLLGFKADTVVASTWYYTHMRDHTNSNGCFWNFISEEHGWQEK
FRET ratio against toxin concentration over time, plate reader: higher toxin concentration resulted in faster decrease of the FRET ratio
